Compound potency records, mixed from different reports. Data source: NIAID ChemDB in PubChem.

All rows: enzyme or target tests; agent: Hepatitis C virus; protein: HCV NS3 protease

Conditions beyond the fields shown may differ between rows. Percent inhibition refers to the dose given; in toxicity tests it is the harm to the cells. ICn is the concentration giving n% inhibition. An empty or dashed field is not shown.

structure,measure,tested at,result
CC(C)C[C@H](NC(=O)[C@@H](N)CC(=O)O)C(=O)N[C@@H](CCC(=O)O)C(=O)N[C@H](C(=O)N[C@H](C(=O)N[C@H](C(=O)O)[C@@H](C)O)C(C)C)C(C)C,Ki,-,>500 µM
CC[C@H](NC(=O)[C@@H](NC(=O)[C@@H](NC(=O)[C@H](CC(C)C)NC(=O)[C@@H](CCC(=O)O)NC(=O)[C@H](CC(=O)O)NC(C)=O)[C@@H](C)CC)C1CCCCC1)C(=O)CCc1nccs1,inhibition,10 µM,64%
CCCC[C@H](NC(=O)[C@@H]1Cc2ccccc2CN1C(=O)[C@H](CS)NC(=O)[C@@H](N)CC(C)C)C(=O)N[C@@H](CO)C(=O)N[C@@H](Cc1ccc(O)cc1)C(=O)O,Ki,-,>1000 µM
CC[C@H](NC(=O)[C@@H](NC(=O)[C@@H](NC(=O)[C@H](CC(C)C)NC(=O)[C@@H](CCC(=O)O)NC(=O)[C@H](CC(=O)O)NC(C)=O)[C@@H](C)CC)C1CCCCC1)C(=O)CCc1ccccc1,inhibition,1 µM,25%
C=C(C)N[C@@H](CC(=O)O)C(=O)N[C@H](CC(=O)O)C(=O)N[C@H](C(=O)N[C@H](C(=O)N1CCC[C@H]1C(=O)N[C@@H](CS)C(=O)O)C(C)C)[C@@H](C)CC,IC50,-,4 µM
CC[C@H](C)[C@H](NC(=O)[C@H](CC(C)C)NC(=O)[C@@H](CCC(=O)O)NC(=O)CCC(=O)O)C(=O)N[C@@H](CC1CCCCC1)C(=O)NC1(C(=O)NS(=O)(=O)c2ccccc2)CC1,Ki,-,0.56 µM
C[C@H](NC(=O)OC(C)(C)C)C(=O)C1CCC[C@H]1C(=O)NC1(C(=O)O)CC1,IC50,-,>1000 µM
CC[C@H](C)[C@H](NC(=O)[C@H](CC(C)C)NC(=O)[C@@H](CCC(=O)O)NC(=O)CCC(=O)O)C(=O)N[C@@H](CC1CCCCC1)C(=O)NC1(c2nn[nH]n2)CC1,Ki,-,10.2 µM
CC(C)(C)OC(=O)NC1CCCCC/C=C\C2CC2(C(=O)O)NC(=O)C2CCCN2C1=O,IC50,-,400 µM
C/C=C/C(=O)[C@H](CC)NC(=O)[C@@H](NC(=O)[C@@H](NC(=O)[C@H](CC(C)C)NC(=O)[C@@H](CCC(=O)O)NC(=O)[C@H](CC(=O)O)NC(C)=O)[C@@H](C)CC)C1CCCCC1,inhibition,10 µM,96%
CC[C@H](C)[C@H](NC(=O)[C@H](CC(C)C)NC(=O)[C@@H](CCC(=O)O)NC(=O)[C@H](CCC(=O)O)NC(=O)CCC(=O)O)C(=O)N[C@@H](CC1CCCCC1)C(=O)NC1(C(=O)C(=O)O)CC1,Ki,-,0.098 µM
CSCC[C@H](NC(=O)[C@H](CCC(=O)O)NC(=O)[C@@H](CC(=O)O)NC(C)=O)C(=O)N[C@@H](CCC(=O)O)C(=O)N[C@@H](CCC(=O)O)C(=O)N[C@@H](CS)C(=O)O,IC50,-,1 µM
CC[C@H](NC(=O)[C@@H](NC(=O)[C@@H](NC(=O)[C@H](CC(C)C)NC(=O)[C@@H](CCC(=O)O)NC(=O)[C@H](CC(=O)O)NC(C)=O)[C@@H](C)CC)C1CCCCC1)C(O)/C=C/c1ccc(OC)cc1,inhibition,10 µM,7%
C[C@@H](O)[C@H](NC(=O)[C@H](CO)NC(=O)[C@H](CS)NC(=O)[C@@H](N)CC(=O)O)C(=O)N1CCC[C@H]1C(=O)N[C@@H](CS)C(=O)O,Ki,-,180 µM
CC[C@H](NC(=O)[C@@H](NC(=O)[C@@H](NC(=O)[C@H](CC(C)C)NC(=O)[C@@H](CCC(=O)O)NC(=O)[C@H](CC(=O)O)NC(C)=O)[C@@H](C)CC)C1CCCCC1)C(=O)CCCCCC(C)C,inhibition,1 µM,31%
CCCC(NC(=O)[C@@H]1CCCN1C(=O)[C@@H](NC(=O)[C@@H](NC(=O)[C@H](CC(=O)O)NC(=O)[C@H](CC(=O)O)NC(C)=O)[C@@H](C)CC)C(C)C)C(=O)NCc1ccccc1,IC50,-,2 µM
CSCC[C@H](NC(C)=O)C(=O)N[C@@H](CCC(=O)O)C(=O)N[C@@H](CCC(=O)O)C(=O)N[C@@H](CS)C(=O)O,IC50,-,150 µM
CC(=O)N[C@H](C(=O)N[C@H](C(=O)N1CCC[C@H]1C(=O)NC1(C(=O)O)CC1)C(C)C)C1CCCCC1,IC50,-,>1000 µM